Laboratory results: PubChem BioAssay AID504761 (Drosophila RNAi Screening Center, 2011)
In all, the deposit lists about 22,000 reagents; this is a random part of those that have a named target and a result. Over the whole deposit, 116 (0.52%) are marked active. 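Calls depend on retest data that are not deposited; infection was ranked per plate without normalising between plates; the unit of the infection score is not given.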 Raw values vary from plate to plate and are shown uncorrected. A number with no mark means an inactive call. A plus sign joins genes that one reagent is predicted to hit. No sequences are given here. The record does not give: the amount of reagent, the time to read-out.

- Assay: 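Genome-wide fly cell screen for genes dengue virus requires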 (primary screen)
- Cells: D.Mel-2 cells from Drosophila
- Knock-down reagent: long dsRNA against Drosophila genes
- Treatment: infection with dengue virus type 2; dose and infection time not stated
- Detection: 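Cells stained for dengue envelope protein and imaged; percent of infected cells per well on duplicate plates, ranked by infection, with stained nuclei counted for cell number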
- Reading the numbers: infection score: higher = more virus-infected cells; cell count: higher = more cells in the well
- Active means: 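Low infection ranks in the two replicates (chance level up to 0.065) followed by a retest with a 1.5-fold or larger significant decrease, p below 0.05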
- Calls: active = confirmed: knock-down lowers infection; inactive = not picked or not confirmed

target,amplicon,"infection score, replicate 1","infection score, replicate 2","cell count, replicate 1","cell count, replicate 2"
mbm (mushroom body miniature),DRSC00319,2.93,2.55,5936,5835
sbb (scribbler),DRSC05723,0.92,4.88,5682,5594
sbb (scribbler),DRSC07676,13,26.9,5579,5579
sbb (scribbler),DRSC28911,24.1,15.3,5426,4361
RpS7 (Ribosomal protein S7),DRSC15394,2.78,3.19,1476,1128
RpS7 (Ribosomal protein S7),DRSC28468,10.9,19.5,1079,1786
p53,DRSC17024,4.31,13.7,6489,6677
Hsp23 (Heat shock protein 23),DRSC11188,12.4,14.3,5968,5341
Hsp23 (Heat shock protein 23),DRSC29302,16,14.6,2011,3899
CG34433,DRSC15077,10.3,20.3,5549,5432
CG32050 (retired record),DRSC10173,0.4,1.28,6564,6620
CG32050 (retired record),DRSC25184,5.41,11.6,6768,6552
Yip1d1 (Yip1 domain-containing 1),DRSC02166,23,6.13,5789,5937
CG15773,DRSC18079,14.1,20.9,6104,6010
wbl (windbeutel),DRSC07718,0.72,2.03,6253,6343
wbl (windbeutel),DRSC26561,6.98,11.3,6015,5870

Continued (2 carried over from the part before).
target,amplicon,"infection score, replicate 1","infection score, replicate 2","cell count, replicate 1","cell count, replicate 2"
wbl (windbeutel),DRSC07718,0.72,2.03,6253,6343
wbl (windbeutel),DRSC26561,6.98,11.3,6015,5870
DIP-theta (Dpr-interacting protein theta),DRSC00885,1.48,2.16,6130,5556
DIP-theta (Dpr-interacting protein theta),DRSC02340,11.2,2.15,4418,6620
Mal-B2 (Maltase B2),DRSC02417,4.37,10.5,6047,6319
CG32576 + UQCR-14,DRSC19870,12.8,5.83,5619,6086
CG32547,DRSC19263,0.11,0.16,6302,6351
CG32547,DRSC19474,5.96,6.2,6347,6161
Ino80 (INO80 complex subunit),DRSC14760,3.91,9.14,6654,6398
Ino80 (INO80 complex subunit),DRSC15333,1.42,1.69,6281,5986
Ino80 (INO80 complex subunit),DRSC15501,3.66,3.77,6612,6279
